# In EP4821928A1, “BICYCLIC HETEROCYCLIC COMPOUND AND FUNGICIDE FOR AGRICULTURAL AND HORTICULTURAL USE CONTAINING SAME AS ACTIVE INGREDIENT” (dated 2026):
# How the values were obtained:
# [1] = test system: Speckled leaf blotch fungus (Septoria tritici); assay: Speckled leaf blotch anti-germ test (Test Example F); conditions: 50 ppm/well; Czapek-dox broth; 25°C for 3 days; absorbance 600 nm
# Experimental: (§1) Speckled leaf blotch fungus (Septoria tritici) Conidia were suspended in Czapek-dox broth and a suspension of 1 × 10^5 spores were prepared. The prepared spore suspension was seeded at 100 µl/well to a 96-well multiplate. In the test, each compound was dissolved in a dimethyl sulfoxide-methanol mixed solution (volume ratio: 9/1) and dispensed at 50 ppm/well. The absorbance of each well was measured at a wavelength of 600 nm using a photometer. The multiplate was incubated at 25°C for 3 days, followed by absorbance measurement again. The difference in absorbance between the treatment day and 3 days later was calculated, and the rate of inhibition was calculated from the ratio between the treatment group and the non-treatment group.
# [2] = test system: Anthracnose fungus (Glomerella cingulata); assay: Anthracnose anti-germ test (Test Example E); conditions: 50 ppm/well; Czapek-dox broth; 25°C for 3 days; absorbance 600 nm
# Experimental: as §1, with “The” for “Speckled leaf blotch fungus (Septoria tritici) Conidia were suspended in Czapek-dox broth and a suspension of 1 × 10^5 spores were prepared. The”
# [3] = test system: Fusarium blight fungus (Fusarium graminearum); assay: Fusarium blight anti-germ test (Test Example D); conditions: 50 ppm/well; Czapek-dox broth; 25°C for 3 days; absorbance 600 nm
# Experimental: as §1, with “Fusarium blight” for “Speckled leaf blotch”, “(Fusarium graminearum)” for “(Septoria tritici)”
# Botrytis cinerea = assay: Tomato gray mold pot test (Test Example B); conditions: 250 ppm sprayed, 2.5 ml/pot; tomato variety Oogata Fukuju; degree of disease development 2 to 3 days after inoculation
# Experimental: Seeds of test plants (tomato variety: Oogata Fukuju) were planted and then cultivated until three first leaves appeared. In the test, each compound was dissolved in a dimethyl sulfoxide-methanol mixed solution (volume ratio: 9/1) and diluted into a concentration of 250 ppm with ion exchange water to obtain a chemical. The obtained chemical was sprayed to the test plants (2.5 ml/pot). After drying of the chemical, the plants were inoculated by spraying of 3 to 6 × 10^5 organisms/ml of a conidium suspension of Botrytis cinerea. The plants thus inoculated were left at room temperature of 23 to 25°C in a moist chamber for approximately 48 hours to promote the onset of the disease. The degree of disease development was investigated 2 to 3 days after inoculation, and effects of the chemical were evaluated.
# (§2) The degrees of disease development in these Test Examples were evaluated by 0.05 when the degree of disease development in a plant having no onset of the disease was defined as 0 and the degree of disease development in a plant in a group without chemical treatment was defined as 3. From the degree of disease development, a control value was calculated according to the following expression.
# (§3) Control value = 100{1−(n/3)} [formula] N = Degree of disease development in each chemical treatment group.
# [4] = test system: Gray mold fungus (Botrytis cinerea); assay: Gray mold anti-germ test (Test Example C); conditions: 50 ppm/well; Czapek-dox broth; 25°C for 3 days; absorbance 600 nm
# Experimental: as §1, with “Gray mold” for “Speckled leaf blotch”, “(Botrytis cinerea)” for “(Septoria tritici)”
# Magnaporthe grisea = assay: Rice blast disease pot test (Test Example A); conditions: 250 ppm sprayed, 2.5 ml/pot; rice variety Sachikaze; degree of disease development 6 to 8 days after inoculation
# Experimental: Seeds of test plants (rice variety: Sachikaze) were planted and then cultivated until the second leaves appeared. In the test, each synthesized compound was dissolved in a dimethyl sulfoxide-methanol mixed solution (volume ratio: 9/1) and diluted into a concentration of 250 ppm with ion exchange water to obtain a chemical. The obtained chemical was sprayed to the test plants (2.5 ml/pot). After drying of the chemical, the plants were inoculated by spraying of 3 to 5 × 10^4 organisms/ml of a conidium suspension of Magnaporthe grisea. The plants thus inoculated were left at room temperature of 23 to 25°C in a moist chamber for approximately 24 hours to promote the onset of the disease. The degree of disease development was investigated 6 to 8 days after inoculation, and effects of the chemical were evaluated.
# as §2, §3
Structure (SMILES),Speckled leaf blotch anti-germ test (rate of inhibition) [1],Anthracnose anti-germ test (rate of inhibition) [2],Fusarium blight anti-germ test (rate of inhibition) [3],Tomato gray mold pot test (control value) (Botrytis cinerea),Gray mold anti-germ test (rate of inhibition) [4],Rice blast disease pot test (control value) (Magnaporthe grisea)
COc1ccc2c(c1)OC(C)(C)N=C2n1cnc2c(F)c(F)ccc21,H (H represents a control value or rate of inhibition of larger than 50%),H (H represents a control value or rate of inhibition of larger than 50%),H (H represents a control value or rate of inhibition of larger than 50%),H (H represents a control value or rate of inhibition of larger than 50%),H (H represents a control value or rate of inhibition of larger than 50%),L (L represents a control value or rate of inhibition of 50% or less)
Cc1ccc2c(ncn2C2=NC(C)(C)Oc3c(Cl)cccc32)c1C,L (L represents a control value or rate of inhibition of 50% or less),H (H represents a control value or rate of inhibition of larger than 50%),H (H represents a control value or rate of inhibition of larger than 50%),H (H represents a control value or rate of inhibition of larger than 50%),H (H represents a control value or rate of inhibition of larger than 50%),H (H represents a control value or rate of inhibition of larger than 50%)
Cc1ccc2c(ncn2C2=NC(C)(C)Oc3cccc(F)c32)c1C,L (L represents a control value or rate of inhibition of 50% or less),H (H represents a control value or rate of inhibition of larger than 50%),H (H represents a control value or rate of inhibition of larger than 50%),H (H represents a control value or rate of inhibition of larger than 50%),H (H represents a control value or rate of inhibition of larger than 50%),H (H represents a control value or rate of inhibition of larger than 50%)
Cc1cccc2c1OC1(CCC1)N=C2n1cnc2c(C)c(C)ccc21,H (H represents a control value or rate of inhibition of larger than 50%),H (H represents a control value or rate of inhibition of larger than 50%),H (H represents a control value or rate of inhibition of larger than 50%),H (H represents a control value or rate of inhibition of larger than 50%),H (H represents a control value or rate of inhibition of larger than 50%),H (H represents a control value or rate of inhibition of larger than 50%)
Cc1ccc2c(C3=NC(C)(C)Oc4c3ccc(F)c4C)cnn2c1C,H (H represents a control value or rate of inhibition of larger than 50%),H (H represents a control value or rate of inhibition of larger than 50%),H (H represents a control value or rate of inhibition of larger than 50%),H (H represents a control value or rate of inhibition of larger than 50%),H (H represents a control value or rate of inhibition of larger than 50%),H (H represents a control value or rate of inhibition of larger than 50%)
COc1ccc2c(c1)OC(C)(C)N=C2n1cnc2c(C)c(C)ccc21,H (H represents a control value or rate of inhibition of larger than 50%),H (H represents a control value or rate of inhibition of larger than 50%),H (H represents a control value or rate of inhibition of larger than 50%),H (H represents a control value or rate of inhibition of larger than 50%),H (H represents a control value or rate of inhibition of larger than 50%),H (H represents a control value or rate of inhibition of larger than 50%)
Cc1ccnc2c1ncn2C1=NC(C)(C)Oc2cccc(F)c21,L (L represents a control value or rate of inhibition of 50% or less),H (H represents a control value or rate of inhibition of larger than 50%),L (L represents a control value or rate of inhibition of 50% or less),H (H represents a control value or rate of inhibition of larger than 50%),L (L represents a control value or rate of inhibition of 50% or less),H (H represents a control value or rate of inhibition of larger than 50%)
C=Cc1cccc2c1ncn2C1=NC(C)(C)Oc2c(C)cccc21,H (H represents a control value or rate of inhibition of larger than 50%),H (H represents a control value or rate of inhibition of larger than 50%),L (L represents a control value or rate of inhibition of 50% or less),L (L represents a control value or rate of inhibition of 50% or less),H (H represents a control value or rate of inhibition of larger than 50%),H (H represents a control value or rate of inhibition of larger than 50%)
Cc1cc2ncn(C3=NC(C)(C)Oc4ccccc43)c2cc1C,H (H represents a control value or rate of inhibition of larger than 50%),H (H represents a control value or rate of inhibition of larger than 50%),L (L represents a control value or rate of inhibition of 50% or less),H (H represents a control value or rate of inhibition of larger than 50%),H (H represents a control value or rate of inhibition of larger than 50%),L (L represents a control value or rate of inhibition of 50% or less)
Cc1ccc2c(ncn2C2=NC(C)(C)Oc3ccccc32)c1C,H (H represents a control value or rate of inhibition of larger than 50%),H (H represents a control value or rate of inhibition of larger than 50%),H (H represents a control value or rate of inhibition of larger than 50%),H (H represents a control value or rate of inhibition of larger than 50%),H (H represents a control value or rate of inhibition of larger than 50%),H (H represents a control value or rate of inhibition of larger than 50%)
